Assay results from patent US20240317834A1, “COMPOSITIONS AND METHODS FOR NEUROLOGICAL DISEASES” (CODA BIOTHERAPEUTICS, published 2024).

Assays:
[1] = molecular target: T1, CODA805 (Y115D, S170T in SEQ ID NO: 33) (human (chimera of human α7-nAChR and …))
T1 chain: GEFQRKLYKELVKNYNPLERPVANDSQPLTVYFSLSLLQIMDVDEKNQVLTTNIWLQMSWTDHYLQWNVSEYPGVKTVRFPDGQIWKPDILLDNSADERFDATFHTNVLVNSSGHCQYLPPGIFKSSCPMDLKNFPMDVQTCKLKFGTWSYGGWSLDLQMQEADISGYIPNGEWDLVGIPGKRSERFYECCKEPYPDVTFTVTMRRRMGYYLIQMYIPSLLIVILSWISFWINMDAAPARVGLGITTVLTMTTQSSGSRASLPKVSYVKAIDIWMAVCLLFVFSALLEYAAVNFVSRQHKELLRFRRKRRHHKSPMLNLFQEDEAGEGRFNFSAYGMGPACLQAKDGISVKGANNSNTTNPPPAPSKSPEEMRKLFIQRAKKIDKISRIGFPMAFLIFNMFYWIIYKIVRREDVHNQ

[2] = molecular target: T2, CODA1045 (R101W, Y210V in SEQ ID NO: 33) (human (chimera of human α7-nAChR and …))
T2 chain: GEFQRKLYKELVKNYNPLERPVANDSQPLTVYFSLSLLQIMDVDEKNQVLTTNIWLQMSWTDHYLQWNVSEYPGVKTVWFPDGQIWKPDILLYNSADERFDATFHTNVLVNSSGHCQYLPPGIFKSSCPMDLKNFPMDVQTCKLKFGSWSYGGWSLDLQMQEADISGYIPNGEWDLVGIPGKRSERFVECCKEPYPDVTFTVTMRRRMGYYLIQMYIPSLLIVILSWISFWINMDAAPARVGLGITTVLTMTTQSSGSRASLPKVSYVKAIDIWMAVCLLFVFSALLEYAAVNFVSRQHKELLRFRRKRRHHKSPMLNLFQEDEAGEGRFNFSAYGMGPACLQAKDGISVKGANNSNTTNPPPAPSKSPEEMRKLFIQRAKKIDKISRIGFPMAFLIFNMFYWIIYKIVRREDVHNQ

[3] = molecular target: T3, CODA282 (Y115D in SEQ ID NO: 33) (human (chimera of human α7-nAChR and …))
T3 chain: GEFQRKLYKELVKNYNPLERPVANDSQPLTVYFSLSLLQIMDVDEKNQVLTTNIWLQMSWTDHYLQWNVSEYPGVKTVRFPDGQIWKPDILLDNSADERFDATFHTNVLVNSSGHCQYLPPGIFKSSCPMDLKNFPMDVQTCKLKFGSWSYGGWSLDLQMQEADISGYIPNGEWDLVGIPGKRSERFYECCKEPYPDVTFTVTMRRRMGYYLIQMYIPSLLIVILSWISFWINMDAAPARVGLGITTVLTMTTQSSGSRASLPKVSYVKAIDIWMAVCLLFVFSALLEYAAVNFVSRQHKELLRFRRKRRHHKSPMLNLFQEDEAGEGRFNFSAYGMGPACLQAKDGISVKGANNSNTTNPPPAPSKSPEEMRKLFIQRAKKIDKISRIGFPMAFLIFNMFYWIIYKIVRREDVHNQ

[4] = molecular target: T4, CODA339 (L131D in SEQ ID NO: 33) (human (chimera of human α7-nAChR and …))
T4 chain: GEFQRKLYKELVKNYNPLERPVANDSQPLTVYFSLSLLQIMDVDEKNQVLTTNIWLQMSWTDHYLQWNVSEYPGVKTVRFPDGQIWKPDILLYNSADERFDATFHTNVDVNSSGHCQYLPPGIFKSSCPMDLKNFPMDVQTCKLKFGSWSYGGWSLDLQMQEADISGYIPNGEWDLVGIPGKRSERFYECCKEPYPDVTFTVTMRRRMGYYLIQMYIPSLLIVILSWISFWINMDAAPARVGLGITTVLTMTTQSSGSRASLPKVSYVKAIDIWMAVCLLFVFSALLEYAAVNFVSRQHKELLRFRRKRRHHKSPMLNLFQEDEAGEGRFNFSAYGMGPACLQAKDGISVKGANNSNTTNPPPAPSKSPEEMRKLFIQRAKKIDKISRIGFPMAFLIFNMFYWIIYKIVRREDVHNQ

[5] = molecular target: T5, CODA535 (L131T, S172D in SEQ ID NO: 33) (human (chimera of human α7-nAChR and …))
T5 chain: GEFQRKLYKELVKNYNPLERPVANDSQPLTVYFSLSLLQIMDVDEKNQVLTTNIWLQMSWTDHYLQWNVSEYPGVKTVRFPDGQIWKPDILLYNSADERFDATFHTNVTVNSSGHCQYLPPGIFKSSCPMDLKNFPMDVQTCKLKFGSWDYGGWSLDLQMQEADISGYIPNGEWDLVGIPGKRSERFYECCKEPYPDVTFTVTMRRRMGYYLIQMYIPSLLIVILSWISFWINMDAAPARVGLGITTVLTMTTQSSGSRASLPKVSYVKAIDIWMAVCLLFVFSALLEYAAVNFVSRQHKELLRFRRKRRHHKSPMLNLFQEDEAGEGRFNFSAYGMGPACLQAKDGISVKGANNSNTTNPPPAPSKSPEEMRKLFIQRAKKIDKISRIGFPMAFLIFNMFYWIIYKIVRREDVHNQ

[6] = molecular target: T6, CODA1025 (R101F, L131G in SEQ ID NO: 33) (human (chimera of human α7-nAChR and …))
T6 chain: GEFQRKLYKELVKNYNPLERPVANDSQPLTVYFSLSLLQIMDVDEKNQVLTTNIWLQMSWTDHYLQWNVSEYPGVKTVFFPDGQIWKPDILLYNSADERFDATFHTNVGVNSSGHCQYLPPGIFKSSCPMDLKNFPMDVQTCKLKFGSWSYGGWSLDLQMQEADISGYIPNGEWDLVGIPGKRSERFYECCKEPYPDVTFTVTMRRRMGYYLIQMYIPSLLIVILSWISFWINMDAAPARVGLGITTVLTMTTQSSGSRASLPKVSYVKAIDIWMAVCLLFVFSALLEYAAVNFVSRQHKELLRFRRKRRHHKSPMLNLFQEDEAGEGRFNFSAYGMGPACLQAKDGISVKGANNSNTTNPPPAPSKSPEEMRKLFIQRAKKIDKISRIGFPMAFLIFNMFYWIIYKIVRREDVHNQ

B1: α-bungarotoxin conjugated to Alexa Fluor 647 (ligand)
chain: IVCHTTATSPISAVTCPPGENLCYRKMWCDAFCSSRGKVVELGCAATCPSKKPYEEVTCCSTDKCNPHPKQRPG
Normalized AB MFI [1]: 0.93 ratio to SEQ ID NO: 33 control | Normalized AB % [2]: 0.03 ratio to SEQ ID NO: 33 control | Normalized AB % [3]: 1.23 ratio to SEQ ID NO: 33 control | Normalized AB MFI [3]: 1.04 ratio to SEQ ID NO: 33 control | Normalized AB MFI [4]: 1.41 ratio to SEQ ID NO: 33 control | Normalized AB MFI [5]: 0.72 ratio to SEQ ID NO: 33 control | Normalized AB % [6]: 0.46 ratio to SEQ ID NO: 33 control
